Measurements from PubChem BioAssay AID624173 (National Center for Advancing Translational Sciences (NCATS), 2012).
The list shows a part of the results, in another mix than the full data. Some salts or complexes appear as unconnected parts, following the source record. Active and inactive are the calls of the source. The call rests on the fitted dose curve; in most records, active means well fitted inhibition curve with a large enough effect; inconclusive means small, poorly fitted or top-dose-only effect; inactive means flat fitted curve, though single readings scatter.
Further: nearly all actives have a fitted effect of over 50% in size.
On the % scale 0 is the no-effect control and ±100 the full control effect.

The compounds below were run against pyruvate kinase (Trypanosoma brucei) (UniProt Q57TT1) (assay: qHTS of Trypanosoma Brucei Inhibitors). Conditions: TbPYK enzyme, Kinase-Glo Plus ATP luminescence, 45 min; at 76.8 µM (top of the series).
With `O=C(OC1CN2CCC1CC2)C1c2ccccc2Oc2ccccc21` (configuration not stated) the activity, negative = inhibition was inactive: -10.6%.
`CN(C)c1cccc(C(=O)NCC2(N3CCCCC3)CCCCC2)c1` was tested, and the activity, negative = inhibition was inactive: -14.4%.
In the case of `O=[N+]([O-])c1cc([N+](=O)[O-])c(OC2CCCCC2O)c([N+](=O)[O-])c1` (configuration not stated), the activity, negative = inhibition is reported as inactive: -9.18%.
With `COc1ccc(CN(CCCl)CCCl)cc1Cl` the activity, negative = inhibition was inactive: -0.109%.
For `CCCCn1nnnc1C(c1ccccc1OC(F)(F)F)N1CCC(n2c(=O)[nH]c3ccccc32)CC1` (configuration not stated), the activity, negative = inhibition was inactive: 4.05%.
In the case of `CC(C)c1ccc(NC2CCN(C(=O)OC(C)(C)C)CC2)cc1`, the activity, negative = inhibition is reported as inactive: -10.9%.
With `CCCCn1nnnc1C(c1ccnc2ccccc12)N1CCC(n2c(=O)[nH]c3ccccc32)CC1` (configuration not stated) the activity, negative = inhibition was inactive: 0.885%.
`CCC(c1nnnn1C(C)(C)C)N1CCC(n2c(=O)[nH]c3ccccc32)CC1` (configuration not stated) was tested, and the activity, negative = inhibition was inactive: -11.5%.
In the case of `O=C(NCC1(N2CCOCC2)CCCCC1)c1cc(F)c(F)cc1Cl`, the activity, negative = inhibition is reported as inactive: 14%.
`COc1cc(OC)c(C(=O)NCC2(N(C)C)CCCCC2)cc1OC` was tested, and the activity, negative = inhibition was inactive: -11.1%.
For `CN1CCC(Nc2cccc(F)c2)CC1`, the activity, negative = inhibition was inactive: 4.13%.
For `COc1ccc2c(c1O)-c1c(O)c(OC)cc3c1[C@H](C2)[N+](C)(C)CC3.O=[N+]([O-])c1cc([N+](=O)[O-])c([O-])c([N+](=O)[O-])c1[O-]`, the activity, negative = inhibition was inactive: -1.95%.
`O=C(NCC1(N2CCCCC2)CCCCC1)c1cncc(Br)c1` was tested, and the activity, negative = inhibition was inactive: 4.43%.
With `O=C(OC1CN2CCC1CC2)c1ccc([N+](=O)[O-])cc1` (configuration not stated) the activity, negative = inhibition was inactive: -0.743%.
For `O=C(NCC1(N2CCOCC2)CCCCC1)c1ccccc1Br`, the activity, negative = inhibition was inactive: 0.999%.
`CCCOc1ccc(C(=O)NCC2(N(C)C)CCCCC2)cc1OC` was tested, and the activity, negative = inhibition was inactive: -3.33%.
`CCCCOc1ccccc1C(=O)NCC1(N2CCOCC2)CCCCC1` was tested, and the activity, negative = inhibition was inactive: 2.32%.
In the case of `Cc1ccc(C(=O)NCC2(N(C)C)CCCCC2)o1`, the activity, negative = inhibition is reported as inactive: 1.55%.
For `COc1ccc(C(c2nnnn2C2CCCC2)N2CCC(n3c(=O)[nH]c4ccccc43)CC2)cc1` (configuration not stated), the activity, negative = inhibition was inactive: 0.693%.
With `O=[N+]([O-])c1cc([N+](=O)[O-])c(Nc2ccc(Cl)cc2)c([N+](=O)[O-])c1` the activity, negative = inhibition was inactive: -7.21%.
With `O=C(NCC1(N2CCCCC2)CCCCC1)c1ccc(OC(F)F)cc1` the activity, negative = inhibition was inactive: -5.18%.
In the case of `CC(C)(C)n1nnnc1C(c1ccccc1OC(F)(F)F)N1CCC(n2c(=O)[nH]c3ccccc32)CC1` (configuration not stated), the activity, negative = inhibition is reported as inactive: 3.36%.
With `O=C(NCC1(N2CCCCC2)CCCCC1)c1cccc([N+](=O)[O-])c1` the activity, negative = inhibition was inactive: 0.797%.
In the case of `CCOc1ccc(C(=O)NCC2(N3CCOCC3)CCCCC2)cc1`, the activity, negative = inhibition is reported as inactive: 3.66%.
`CSc1ccc(C(=O)NCC2(N3CCOCC3)CCCCC2)cc1` was tested, and the activity, negative = inhibition was inactive: 1.02%.
For `O=c1[nH]c2ccccc2n1C1CCN(C(c2ccccc2OC(F)(F)F)c2nnnn2C2CCCC2)CC1` (configuration not stated), the activity, negative = inhibition was inactive: 4.05%.
With `N#CC1(Nc2ccccc2)CCN(CCc2ccccc2)CC1` the activity, negative = inhibition was inactive: -2.99%.
In the case of `CCN1CCC(Nc2ccc(Cl)cc2)CC1`, the activity, negative = inhibition is reported as inactive: 1.54%.
With `O=C(NCC1(N2CCCCC2)CCCCC1)c1cccc(C(F)(F)F)c1` the activity, negative = inhibition was inactive: -24.7%.
For `CCCOc1cccc(C(=O)NCC2(N3CCOCC3)CCCCC2)c1`, the activity, negative = inhibition was inactive: 2.78%.
In the case of `O=[N+]([O-])c1cc([N+](=O)[O-])c(NCC2CCS(=O)(=O)C2)c([N+](=O)[O-])c1` (configuration not stated), the activity, negative = inhibition is reported as inactive: -12.8%.
In the case of `CC(C)c1ccc(C(=O)NCC2(N3CCOCC3)CCCCC2)cc1`, the activity, negative = inhibition is reported as inactive: 2.92%.
With `COc1ccc(NC2CCN(C(=O)OC(C)(C)C)CC2)cc1` the activity, negative = inhibition was inactive: -7.21%.
For `CN1CCN(CCOC(=O)C(O)(c2ccccc2)c2ccccc2)CC1`, the activity, negative = inhibition was inactive: -2.32%.
`CCCCn1nnnc1C(c1cccc2ccccc12)N1CCC(n2c(=O)[nH]c3ccccc32)CC1` (configuration not stated) was tested, and the activity, negative = inhibition was inactive: -0.31%.
For `O=C(NCC1(N2CCOCC2)CCCCC1)c1cc(=O)[nH]c2ccccc12`, the activity, negative = inhibition was inactive: -1.21%.
For `COc1cc(C(=O)NCC2(N3CCCCC3)CCCCC2)ccc1OC(F)F`, the activity, negative = inhibition was inactive: -2.46%.
